Measured values from several laboratories, pooled; numbers as filed in NIAID ChemDB.

Shared fields: host protein counter-tests

An empty or dashed field is not shown. Percent inhibition refers to the dose given; in toxicity tests it is the harm to the cells. Conditions beyond the fields shown may differ between rows. ICn: concentration for n% inhibition.

{"compound": "O=c1onc(C(O)c2ccccc2)s1", "agent": "Human", "protein": "Proteasome", "method": "broth dilution / fluorescence", "measure": "IC50", "value": "20 µM"}
{"compound": "Nc1nc(N)nc(-c2ccc(OCc3ccc(Cl)cc3)cc2)n1", "agent": "Human", "protein": "Dihydrofolate reductase", "method": "absorbance", "measure": "IC50", "value": "83.3 µM"}
{"compound": "CCCCNC(=O)[C@H](C)C[C@H](O)[C@H](CC1CCCCC1)NC(=O)[C@@H](NC(=O)[C@H](CCCN)NC(=O)OC(C)(C)C)C(C)C", "protein": "Pepsin", "measure": "IC50", "value": "2.7 µM"}
{"compound": "CCC[C@H](NC(=O)[C@@H]1[C@H]2CCC[C@H]2CN1C(=O)[C@@H](NC(=O)[C@@H](NC(=O)c1cnccn1)C1CCCCC1)C(C)(C)C)C(=O)C(=O)NC1CC1", "protein": "Cathepsin S", "method": "substrate cleavage", "measure": "IC90", "value": ">100 µM"}
{"compound": "C=C1C(=O)C[C@@H]2/C=C(\\COC(C)=O)CC/C=C(/C=O)[C@H](OC(C)=O)[C@@H](OC(=O)C(C)CC)[C@@H]12", "agent": "Mus musculus", "protein": "Dehydrogenase", "method": "MTT / absorbance", "measure": "IC50", "value": "13.8 µg/mL"}
{"compound": "O=C(CN1C(=O)CN=C(c2ccccc2)c2ccccc21)NCC1CC(Br)=NO1", "agent": "Human", "protein": "Cathepsin B", "method": "fluorescence", "measure": "inhibition", "tested at": "20 µM", "value": "0%"}
{"compound": "c1cc(CN2CCCNCCNCCCNCC2)ccc1CN1CCCNCCNCCCNCC1", "agent": "Human", "protein": "CXCR2", "method": "calcium flux", "measure": "IC50", "value": ">25 µg/mL"}
{"compound": "CO[P@](=O)(c1cc(C)cc(/C=C/C#N)c1)c1c(C(N)=O)[nH]c2ccc(Cl)cc12", "agent": "Human", "protein": "DNA polymerase alpha", "measure": "IC50", "value": "159.3 µM"}
{"compound": "O=C(CN1C(=O)CN=C(c2ccccc2)c2ccccc21)N1CC2ON=C(Br)C2C1", "agent": "Human", "protein": "Cathepsin B", "method": "fluorescence", "measure": "inhibition", "tested at": "20 µM", "value": "0%"}
{"compound": "C[N+]1(CC2CCCCCC2)CCC(NC(=O)C2c3cc(Cl)ccc3Oc3ccc(Cl)cc32)CC1", "agent": "Human", "protein": "CCR1", "measure": "IC50", "value": "0.00957 µM"}
{"compound": "CC1(C)S[C@H]([C@H](NC(=O)Cc2ccccc2)C(=O)NCc2ccccc2)N[C@H]1C(=O)NCCNC(=O)[C@@H]1N[C@@H]([C@H](NC(=O)Cc2ccccc2)C(=O)NCc2ccccc2)SC1(C)C", "agent": "Human", "protein": "Renin", "method": "HPLC", "measure": "IC50", "value": ">500 µM"}
{"compound": "CCCCNC(=O)[C@H](C)C[C@H](O)[C@H](CC1CCCCC1)NC(=O)[C@@H](NC(=O)[C@@H](NC(=O)OC(C)(C)C)[C@@H](C)O)C(C)C", "protein": "Pepsin", "measure": "IC50", "value": "0.6 µM"}
{"compound": "CC1(C)S[C@H]([C@H](NC(=O)Cc2ccccc2)C(=O)NCc2ccccc2)N[C@H]1C(=O)N[C@H](Cc1ccccc1)[C@H](O)CC(=O)NCc1ccccc1", "agent": "Human", "protein": "Renin", "method": "HPLC", "measure": "IC50", "value": ">500 µM"}
{"compound": "O=c1oc(/C=C/c2ccccn2)ns1", "agent": "Human", "protein": "Proteasome", "method": "broth dilution / fluorescence", "measure": "IC50", "value": ">10 µM"}
{"compound": "CCCCNC(=O)[C@H](C)C[C@H](O)[C@H](CC1CCCCC1)NC(=O)[C@@H](NC(=O)[C@H](CCCN)NC(=O)OCc1ccccc1)C(C)C", "protein": "Renin", "measure": "IC50", "value": "5.6 µM"}
{"compound": "O=Cc1ccc(/C=C/c2nsc(=O)o2)o1", "agent": "Human", "protein": "Proteasome", "method": "broth dilution / fluorescence", "measure": "IC50", "value": ">10 µM"}
{"compound": "O=c1cc(-c2ccc(O)cc2)oc2cc(O[C@@H]3O[C@H](CO)[C@@H](O)[C@H](O)[C@H]3OS(=O)(=O)O)cc(O)c12", "agent": "Molluscum contagiosum virus", "protein": "Topoisomerase", "measure": "IC50", "value": ">200 µM"}

The first 2 rows once more:

compound	agent	protein	method	measure	tested at	value
O=c1onc(C(O)c2ccccc2)s1	Human	Proteasome	broth dilution / fluorescence	IC50		20 µM
Nc1nc(N)nc(-c2ccc(OCc3ccc(Cl)cc3)cc2)n1	Human	Dihydrofolate reductase	absorbance	IC50		83.3 µM